Experimental data as given in paper PMC6114082, “Synthesis of aminophenylhydroxamate and aminobenzylhydroxamate derivatives and in vitro screening for antiparasitic and histone deacetylase inhibitory activity” (International Journal for Parasitology: Drugs and Drug …, 2018).

Test system: HeLa nuclear extract (HDAC 1, 2, 6, and 8 predominant)
Experiment: Fluorometric HDAC assay, HeLa nuclear extract
Assay type: biochemical
Conditions: fold relative to SAHA (SAHA = 1)
Procedure: The HDACi effect against HeLa nuclear extracts and recombinant proteins were measured using a fluorometric HDAC assay kit (Active Motif, Belgium) according to the manufacturer's instructions. […] A negative control containing trichostatin A at a final concentration of 2 μM was analyzed for each independent experiment.

## O=C(NO)c1ccc(NC(=O)c2cccc(F)c2)cc1 [Compound 349, 4-(3-fluorobenzamido)-N-hydroxybenzamide]
  HDACi HeLa Fold: 3.31

## O=C(NO)c1ccc(CNS(=O)(=O)c2cccc(F)c2)cc1 [Compound 350, 4-(3-fluorobenzenesulfonamidomethyl)-N-hydroxybenzamide]
  HDACi HeLa Fold: 0.24

## O=C(NO)c1ccc(NS(=O)(=O)c2cccc(F)c2)cc1 [Compound 351, 4-(3-fluorobenzenesulfonamido)-N-hydroxybenzamide]
  HDACi HeLa Fold: 2.38

## Cc1nc(-c2ccc(C(=O)NCc3ccc(C(=O)NO)cc3)cc2)cs1 [Compound 360]
  HDACi HeLa Fold: 5,29

## Cc1nc(-c2ccc(C(=O)Nc3ccc(C(=O)NO)cc3)cc2)cs1 [Compound 361]
  HDACi HeLa Fold: 1.15

## COc1cccc(CC(=O)NCc2ccc(C(=O)NO)cc2)c1 [Compound 362, N-hydroxy-4-{[2-(3-methoxyphenyl)acetamido]methyl}benzamide]
  HDACi HeLa Fold: 4.05

## COc1cccc(CC(=O)Nc2ccc(C(=O)NO)cc2)c1 [Compound 363, N-hydroxy-4-[2-(3-methoxyphenyl)acetamido]benzamide]
  HDACi HeLa Fold: 24.70
